# Screening data, single-dose tests

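Whole-cell growth test on Mycobacterium tuberculosis, read after 4 days in a medium based on cholesterol and the lipid DPPC; the read-out is not stated. Concentration: 500 µM. The record gives no direction; compounds that gave an IC50 in retests scored well above the rest, so higher reads as more growth inhibition. Size under these conditions: about 18,000 compounds, about 900 of them at 50% or above in at least one test.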

Results are given as percent effect.
The controls that fix the scale are not given in the record; negative values are as filed.
This is part of a subset picked to be rich in strong results.

structure	effect
CC(C)(C)C(=O)N1CCN(C(=O)[C@@H](N)C(C)(C)C)CC1	-14.52%
CC(=O)c1cccc(OCC(=O)NC2CCCC2)c1	51.92%
N#Cc1ccc(NCc2ccccc2F)nc1	47.7%
CN(C)[C@@H]1CN(C(=O)C2CC=CC2)C[C@H]1CO	-23.01%
c1ccc(CNc2ccncc2)nc1	9.399%
CCOCCN(C)Cc1csnn1	6.229%
COCC(O)CNc1nc(CC(C)C)ns1 (stereo not given)	19.09%
COCCOc1ccc(CNC(=O)c2ccoc2)cn1	-3.569%
CC(C)Sc1ccccc1NS(=O)(=O)N(C)C	52.19%
CN1CCC(CNC(=O)c2ccccc2F)CC1	-1.563%
CC(C)Oc1cccc(CN)c1	41.01%
NCc1cc(Oc2ccc(Cl)cc2)ccn1	-7.693%
COc1cccc(C(=O)N2CCC(O)(C(F)(F)F)C2)c1 (stereo not given)	26.83%
NCC(O)C1CCOCC1 (stereo not given)	-10.17%
CN(C)C(=O)Cn1c(C(F)(F)F)nc2ccccc21	-5.554%
CNC(=O)C(C)Sc1nnnn1-c1ccccc1C (stereo not given)	52.14%
Cc1nc(=N)c(C)c(C)[nH]1	-3.207%
CC(C)OCC1CCN(C(=O)c2cccc(=O)[nH]2)CC1	4.71%
CS(=O)(=O)NCC1CCCN(c2ncc(Cl)cc2F)C1 (stereo not given)	63.95%
CCC1c2ccsc2CCN1CC(=O)NC (stereo not given)	17.59%
Cc1cc(C(=O)Nc2ccc(C(N)=O)cc2)no1	-13.98%
C1CC(C2COCCN2)C1 (stereo not given)	-25.55%
O=C1CN(CC(=O)Nc2cccc(Cl)c2Cl)CCN1	-10.39%
O=C(C1CCC1)N1CCCC1c1cccnc1 (stereo not given)	-8.842%
Cc1cccc(NC(=O)Cn2cnnn2)c1	-20.02%
NCC1CCN(Cc2cccc(F)c2)CC1	14.16%
NCC(=O)Nc1cc(C(F)(F)F)c[nH]c1=O	-0.0901%
NC1CCN(Cc2cc(O)c3cc(F)ccc3n2)C1 (stereo not given)	-14.14%
CC(C)(C)OC(=O)Nc1cnsn1	2.036%
CN(Cc1ccccc1Br)C(=O)c1nccnc1N	33.17%
O=C1CCN(C(=O)c2sccc2Br)CCN1	-3.731%
Nc1nc(-c2ccc3c(c2)CCCC(=O)N3)cs1	28.93%
CCOC(=O)Cn1nc(C)c(CN)c1C	-1.27%
O=C(CC1Sc2ccc(Cl)cc2NC1=O)OCCO (stereo not given)	108.5%
O=C(CCNCCO)c1ccccc1	99.82%
NC(=O)CCc1csc(N)n1	-7.86%
CNS(=O)(=O)c1cc(C(=O)Nc2cc(C)ns2)c(C)o1	24.74%
COCCNCc1scnc1C	0.4757%
CN(C)[C@@H]1CN(C(=O)c2c(F)cccc2Cl)C[C@H]1CO	-38.27%
NCCC1C(=O)Nc2ccccc21 (stereo not given)	14.08%
CCNC(=O)CN(CC)c1cccc(CO)c1	-9.986%
CC(CN)c1ccccc1 (stereo not given)	-21.78%
CC(C(=O)N1CCOCC1)S(=O)(=O)c1ccccn1 (stereo not given)	2.49%
Cc1cc(N2CCNCC2)n[nH]1	-16.43%
OCC(O)CNc1ccnc2ccc(Br)cc12 (stereo not given)	-40.17%
CCc1nnc(C2CNCCO2)o1 (stereo not given)	9.757%
CN(Cc1ccccc1)C(=O)CN	11.05%
O=C(c1cccc(-n2cccn2)n1)N1CCCC1	59.17%
CCCOc1ccc(NS(=O)(=O)N(C)C)cc1Cl	90.6%
CCC(CO)NC(=O)C1(c2ccc(F)cc2F)CCC1 (stereo not given)	52.52%
Cc1ccnc(N2CCOCC2CCO)n1 (stereo not given)	-9.647%
CCCSCC(=O)NCc1nc(-c2ccncc2)n[nH]1	-3.13%

6 of the entries, repeated:

* CN(C)[C@@H]1CN(C(=O)C2CC=CC2)C[C@H]1CO | -23.01%
* NCCC1C(=O)Nc2ccccc21 (stereo not given) | 14.08%
* CCOC(=O)Cn1nc(C)c(CN)c1C | -1.27%
* COc1cccc(C(=O)N2CCC(O)(C(F)(F)F)C2)c1 (stereo not given) | 26.83%
* c1ccc(CNc2ccncc2)nc1 | 9.399%
* COCCOc1ccc(CNC(=O)c2ccoc2)cn1 | -3.569%

Source: ChEMBL document CHEMBL3988442, “University of Dundee, Small-Polar-MMV Screening Library” (2021).